# Sequence variants of PSTVd loop 6 after infection

PSTVd intermediate strain, loop 6: wild type UGACCGCGAG, pool pattern UNNNCGNNNG; upper and lower strand joined, each 5' to 3', the first 5 letters being the upper strand, closing pairs included.

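Three N. benthamiana plants were inoculated with the whole mutant pool. Progeny were sequenced from the inoculated region (day 5), the margin of the inoculated leaf (day 10) and systemic leaves (day 12).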

Numbers give reads per thousand; 0 = not seen among the reads, higher = more abundant. Each site shows the three plants. "Pool" is the share in the plasmid pool used as inoculum, on the same scale. The inoculated region was read from the minus strand, the other sites from the plus strand. For reference, wild type rose from 20.7 per thousand in the pool to 195, 198, 203 (inoculated region), 629, 591, 734 (leaf margin) and 942, 870, 868 (systemic leaves). Sequences that differ at fixed positions probably stem from PCR or sequencing errors, and defective variants can be carried along by functional ones. With 36,220-57,551 reads a sample, very low values are single reads.

| sequence | pool | inoculated region | leaf margin | systemic leaves |
|---|---|---|---|---|
| UAAUCGUACG | 0.235 | 0.122 / 0.180 / 0 | 0.0552 / 0 / 0 | 0 / 0 / 0 |
| UAAUCGUAGG | 0.235 | 0.139 / 0.0898 / 0.0922 | 0 / 0 / 0 | 0 / 0 / 0 |
| UAAUCGUAUG | 0.431 | 0.156 / 0.126 / 0.0738 | 0.304 / 0 / 0 | 0 / 0 / 0 |
| UAAUCGUCAG | 0.235 | 0.139 / 0.144 / 0.111 | 0.0276 / 0 / 0 | 0 / 0 / 0 |
| UAAUCGUCCG | 0.366 | 0.156 / 0.0180 / 0.0738 | 0 / 0 / 0 | 0 / 0 / 0 |
| UAAUCGUCGG | 0.340 | 0.122 / 0.126 / 0.0738 | 0 / 0 / 0 | 0 / 0 / 0 |
| UAAUCGUCUG | 0.536 | 0.0869 / 0.0898 / 0.111 | 0 / 0 / 0.0232 | 0 / 0 / 0.0410 |
| UAAUCGUGAG | 0.261 | 0.226 / 0.126 / 0.148 | 0 / 0 / 0.0232 | 0 / 0 / 0 |
| UAAUCGUGCG | 0.392 | 0.0174 / 0.126 / 0.0922 | 0 / 0 / 0 | 0 / 0 / 0 |
| UAAUCGUGGG | 0.157 | 0.156 / 0.0539 / 0.129 | 0 / 0 / 0.0232 | 0 / 0 / 0 |
| UAAUCGUGUG | 0.431 | 0.0521 / 0.234 / 0.0553 | 0 / 0 / 0.0232 | 0 / 0 / 0 |
| UAAUCGUUAG | 0.405 | 0.122 / 0.0359 / 0.148 | 0 / 0 / 0 | 0 / 0 / 0 |
| UAAUCGUUCG | 0.340 | 0.0869 / 0.0898 / 0.0553 | 0.0552 / 0 / 0 | 0 / 0 / 0 |
| UAAUCGUUGG | 0.314 | 0.0521 / 0.0359 / 0.0369 | 0 / 0 / 0 | 0 / 0 / 0 |
| UAAUCGUUUG | 0.353 | 0.174 / 0.0539 / 0.129 | 0 / 0 / 0 | 0 / 0 / 0 |
| UAAUCUACUA | 0.0131 | 0 / 0 / 0 | 0 / 0 / 0 | 0 / 0 / 0 |
| UAAUCUAUGG | 0.0131 | 0 / 0 / 0 | 0 / 0 / 0 | 0 / 0 / 0 |
| UACACGAAAG | 0.118 | 0.556 / 0.701 / 0.682 | 0.0828 / 0.177 / 0.116 | 0 / 0 / 0 |
| UACACGAACG | 0.118 | 0.573 / 0.629 / 0.461 | 0.0552 / 0.126 / 0.0232 | 0 / 0 / 0 |
| UACACGAAGG | 0.131 | 0.122 / 0.0719 / 0.148 | 0 / 0 / 0.0232 | 0 / 0 / 0 |
| UACACGAAUG | 0.261 | 0.0695 / 0.126 / 0.111 | 0.0276 / 0 / 0 | 0 / 0 / 0 |
| UACACGACAG | 0.131 | 0.104 / 0.0898 / 0.0553 | 0 / 0 / 0 | 0 / 0 / 0 |
| UACACGACCG | 0.170 | 0.0695 / 0.0359 / 0.0553 | 0 / 0 / 0 | 0 / 0 / 0 |
| UACACGACGG | 0.222 | 0.0695 / 0.0359 / 0.0184 | 0.0276 / 0 / 0 | 0 / 0 / 0 |
| UACACGACUG | 0.301 | 0.104 / 0.0539 / 0.0553 | 0 / 0 / 0.0232 | 0 / 0 / 0 |
| UACACGAGAG | 0.131 | 0.122 / 0.0359 / 0.0184 | 0 / 0 / 0 | 0 / 0 / 0 |
| UACACGAGCG | 0.157 | 0.0695 / 0.0539 / 0.0738 | 0.0276 / 0 / 0 | 0 / 0 / 0 |
| UACACGAGGG | 0.131 | 0.0869 / 0.0539 / 0.0738 | 0 / 0 / 0 | 0 / 0 / 0 |
| UACACGAGUG | 0.170 | 0.0869 / 0.0719 / 0.0184 | 0 / 0 / 0.0232 | 0 / 0 / 0 |
| UACACGAUAG | 0.196 | 0.139 / 0.0359 / 0.0738 | 0 / 0 / 0.116 | 0 / 0 / 0 |
| UACACGAUCG | 0.248 | 0.191 / 0.0719 / 0.0553 | 0 / 0 / 0 | 0 / 0 / 0 |
| UACACGAUGG | 0.235 | 0.0348 / 0.0719 / 0.0553 | 0 / 0 / 0.0232 | 0 / 0 / 0 |
| UACACGAUUG | 0.144 | 0.104 / 0.126 / 0.0922 | 0 / 0 / 0 | 0 / 0 / 0 |
| UACACGCAAG | 0.0915 | 0.660 / 0.539 / 0.609 | 0 / 0.0757 / 0.0464 | 0 / 0.0808 / 0.0205 |
| UACACGCACG | 0.0654 | 0.695 / 0.736 / 0.350 | 0.0276 / 0.126 / 0.0464 | 0 / 0 / 0 |
| UACACGCACU | 0.0131 | 0 / 0 / 0 | 0 / 0 / 0 | 0 / 0 / 0 |
| UACACGCAGG | 0.196 | 0.122 / 0.162 / 0.0922 | 0 / 0 / 0.0232 | 0 / 0 / 0 |
| UACACGCAUG | 0.105 | 0.104 / 0.108 / 0.0738 | 0 / 0 / 0 | 0 / 0 / 0 |
| UACACGCCAG | 0.131 | 0.556 / 0.772 / 0.406 | 0.138 / 0.126 / 0.0696 | 0 / 0 / 0 |
| UACACGCCCG | 0.261 | 0.122 / 0.0180 / 0.0553 | 0 / 0 / 0 | 0 / 0 / 0 |
| UACACGCCGG | 0.131 | 0.0869 / 0.0180 / 0.148 | 0 / 0 / 0.0232 | 0 / 0 / 0 |
| UACACGCCUG | 0.222 | 0.0348 / 0.108 / 0.0553 | 0.0552 / 0 / 0 | 0 / 0 / 0 |
| UACACGCGAG | 0.144 | 0.122 / 0.0180 / 0.0369 | 0.193 / 0 / 0 | 0 / 0 / 0.0205 |
| UACACGCGCG | 0.170 | 0.0869 / 0.0898 / 0.0553 | 0 / 0 / 0.0232 | 0 / 0 / 0 |
| UACACGCGGG | 0.170 | 0.122 / 0.0898 / 0.0553 | 0 / 0 / 0 | 0 / 0 / 0 |
| UACACGCGUG | 0.118 | 0.0869 / 0.0719 / 0.111 | 0 / 0 / 0 | 0 / 0 / 0 |
| UACACGCUAG | 0.105 | 0.660 / 0.539 / 0.609 | 0.138 / 0.0504 / 0.0464 | 0.0180 / 0.0202 / 0.0410 |
| UACACGCUCG | 0.196 | 0.139 / 0.0539 / 0.0738 | 0 / 0 / 0 | 0 / 0 / 0 |
| UACACGCUGG | 0.170 | 0.0695 / 0.108 / 0.0922 | 0 / 0 / 0 | 0 / 0 / 0 |
| UACACGCUUG | 0.209 | 0.156 / 0.0359 / 0.0369 | 0.0276 / 0 / 0.0232 | 0 / 0 / 0 |
| UACACGGAAG | 0.0523 | 0.869 / 0.772 / 0.479 | 0.138 / 0.101 / 0.0232 | 0 / 0 / 0 |
| UACACGGACG | 0.118 | 0.608 / 0.647 / 0.314 | 0.166 / 0.0757 / 0 | 0 / 0.0404 / 0.0205 |
| UACACGGAGG | 0.118 | 0.0869 / 0.108 / 0.0738 | 0.0276 / 0 / 0 | 0 / 0 / 0 |
| UACACGGAUG | 0.222 | 0.0695 / 0.0539 / 0.0553 | 0.0276 / 0 / 0 | 0 / 0 / 0 |
| UACACGGCAG | 0.222 | 0.139 / 0.0898 / 0.0553 | 0 / 0 / 0 | 0 / 0 / 0 |
| UACACGGCCG | 0.157 | 0.817 / 0.539 / 0.443 | 0.0552 / 0.0757 / 0.162 | 0 / 0 / 0 |
| UACACGGCGG | 0.222 | 0.104 / 0.0898 / 0.129 | 0 / 0 / 0 | 0 / 0 / 0 |
| UACACGGCUG | 0.196 | 0.730 / 0.647 / 0.406 | 0.138 / 0 / 0 | 0 / 0 / 0 |
| UACACGGGAG | 0.105 | 0.122 / 0.0359 / 0.129 | 0.0276 / 0 / 0.0232 | 0 / 0 / 0 |
| UACACGGGCG | 0.157 | 0.591 / 0.701 / 0.553 | 0.166 / 0.0504 / 0.0232 | 0 / 0 / 0 |
| UACACGGGGG | 0.118 | 0.104 / 0.0180 / 0.0738 | 0 / 0 / 0 | 0 / 0 / 0 |
| UACACGGGUG | 0.196 | 0.104 / 0.0898 / 0.0553 | 0 / 0 / 0.0464 | 0 / 0 / 0 |
| UACACGGUAG | 0.366 | 0.0869 / 0.0898 / 0.0553 | 0 / 0 / 0 | 0 / 0 / 0 |
| UACACGGUCG | 0.288 | 0.904 / 0.844 / 0.498 | 0.0828 / 0.0757 / 0.0232 | 0 / 0 / 0 |
| UACACGGUGG | 0.261 | 0.0521 / 0.144 / 0.0922 | 0 / 0 / 0.0464 | 0 / 0 / 0 |

Data from the supplement of Wu et al. 2024, doi:10.1371/journal.ppat.1012142.